{"source": "patent US20220133842A1", "about": "(priority 2019, published 2022)", "key": {"IPEC-J2 cells": {"test_system": "IPEC-J2 cells", "test": "Tissue integrity by transepithelial electrical resistance", "settings": "IPEC-J2, 4 hours, 100 μM apical"}, "Caco-2 cells": {"test_system": "Caco-2 cells", "test": "Tissue integrity by transepithelial electrical resistance", "settings": "Caco-2, 4 hours, 100 μM apical"}, "T84 cells": {"test_system": "T84 cells", "test": "Tissue integrity by transepithelial electrical resistance", "settings": "T84, 4 hours, 100 μM apical"}, "[1]": {"test_system": "human or porcine intestinal cells grown on inserts", "settings": "4 hours of exposure, range over Caco-2, T84, IPEC-J2"}}}
{"substance": "Destruxin A", "values": [{"measurement": "transepithelial electrical resistance", "setting": "IPEC-J2 cells", "result": 768, "unit": "ohm.cm2"}, {"measurement": "transepithelial electrical resistance", "setting": "Caco-2 cells", "result": 281, "unit": "ohm.cm2"}, {"measurement": "transepithelial electrical resistance", "setting": "T84 cells", "result": 373, "unit": "ohm.cm2"}]}
{"substance": "Destruxin B", "values": [{"measurement": "transepithelial electrical resistance", "setting": "IPEC-J2 cells", "result": 763, "unit": "ohm.cm2"}, {"measurement": "transepithelial electrical resistance", "setting": "Caco-2 cells", "result": 282, "unit": "ohm.cm2"}, {"measurement": "transepithelial electrical resistance", "setting": "T84 cells", "result": 377, "unit": "ohm.cm2"}]}
{"substance": "Enniatin A1", "values": [{"measurement": "decrease in transepithelial electrical resistance", "setting": "[1]", "result": "67-83%"}, {"measurement": "transepithelial electrical resistance", "setting": "IPEC-J2 cells", "result": 128, "unit": "ohm.cm2"}, {"measurement": "transepithelial electrical resistance", "setting": "Caco-2 cells", "result": 95, "unit": "ohm.cm2"}, {"measurement": "transepithelial electrical resistance", "setting": "T84 cells", "result": 122, "unit": "ohm.cm2"}]}
